The assay concerns Pa-LPS induced lung injury. Put plainly: Pa-LPS-induced lung injury, immunostaining of lung sections for ceramide, NFκB and NIMP-R14.
Setting [1] is: Cftr-/- mice, 50 μg/mouse i.t., 24 hrs.

The text below walks through data of patent publication US20130131146A1, “Compositions and Methods for Treating Pulmonary Conditions” (THE JOHNS HOPKINS UNIVERSITY, priority 2010, published 2013).

For `CN(C)CCC=C1c2ccccc2CCc2ccccc21` [AMT, Amitriptyline], where the note is “Cftr+/+ mice”, the “controlling Pa-LPS induced lung injury (representative sections)” value is recorded as “relatively less effective”. Also, under setting [1], the “Pa-LPS induced NFκB levels (lung immunostaining)” value is “significant decrease”, the “Pa-LPS induced ceramide accumulation (lung immunostaining)” value was “significant decrease” and the “Pa-LPS induced neutrophil infiltration (NIMP-R14)” value is “significant decrease”.
